Five sequences from paper PMC8593684 can be followed below.

Protein sequences, listed by entry. Tags and fused reporters are not part of them. Lines headed by an entry give the natural chain unless they say otherwise; changes in a name come on top.
UniProt P03211: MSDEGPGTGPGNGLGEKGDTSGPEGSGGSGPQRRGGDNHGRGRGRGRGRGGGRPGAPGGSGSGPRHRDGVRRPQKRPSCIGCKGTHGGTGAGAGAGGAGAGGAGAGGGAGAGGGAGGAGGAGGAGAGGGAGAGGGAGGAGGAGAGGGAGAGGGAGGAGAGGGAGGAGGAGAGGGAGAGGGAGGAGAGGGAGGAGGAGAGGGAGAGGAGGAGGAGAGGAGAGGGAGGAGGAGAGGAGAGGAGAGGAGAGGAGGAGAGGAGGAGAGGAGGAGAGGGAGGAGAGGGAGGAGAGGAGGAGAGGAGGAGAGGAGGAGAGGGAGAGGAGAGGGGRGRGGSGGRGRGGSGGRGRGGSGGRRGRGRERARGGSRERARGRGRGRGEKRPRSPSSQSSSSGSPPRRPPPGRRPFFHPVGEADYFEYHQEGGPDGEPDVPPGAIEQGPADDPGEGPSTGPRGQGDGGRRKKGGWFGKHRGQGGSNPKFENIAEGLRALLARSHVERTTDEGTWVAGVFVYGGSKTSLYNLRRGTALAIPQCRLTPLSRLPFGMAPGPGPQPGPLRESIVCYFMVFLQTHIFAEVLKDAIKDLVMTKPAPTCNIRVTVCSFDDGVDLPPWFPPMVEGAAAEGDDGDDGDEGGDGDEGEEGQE

For at least one entry, the source does not settle the construct or the ends of the probe.

In this data set the target is EBNA1 (Epstein-Barr virus) (UniProt P03211). Description: EMSA. Particulars: 1.5 and 6 ug EBNA1, poly(dI.dC), 20 mM HEPES ([…], 20 ul, room temperature, 30 min, commercial protein, label: IR700. A general note: A gel shift assay detects complexes by their altered migration in electrophoresis.
As for “CCCTTTTGGTAACCTCTCCTTCCAAACCC (double strand) [c-Myc site 1]”, the binding result is “binds”.

In the case of “CCCTTTTAACAGCATTTCCTACCAAACCC (double strand) [ULBP1 site 2]”, the binding result is given as “binds”.

Consider “CCCTTTTGACAGTATGAGCTTCTAAACCC (double strand) [c-Myc site 2]”, for which the binding result is “binds”.

For the sequence “CCCTTTTGGAAGCATCTGCTTAAACCC (double strand) [ULBP1 site 1]”, the binding result is reported as “binds”.

On to “CCCTTTTGGAAATACGTCCTACCAAACCC (double strand) [Positive control (EBV Rep* site 1)]”, for which the binding result was “binds”.
